Values from PubChem BioAssay AID624099 (ICCB-Longwood, 2012).

Test: 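Knock-downs relieving repression by E2 of an HPV18 LCR luciferase reporter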 (primary screen)
Cells: human C33A cervical carcinoma cells (HPV-negative) stably expressing BPV1 E2 and an HPV18 LCR luciferase reporter
Reagents: siRNA pool against human genes, 40 nM
Time to read-out: 72 h
Read-out: 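HPV18 LCR reporter light per well, converted to plate-wise z-scores that exclude control wells, and averaged over triplicate plates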
Direction: mean z-score and z-score: higher = stronger reporter signal, weaker E2 silencing
Hit rule: 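Mean z ≥ 2 together with z ≥ 2 in two or more of the three replicates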
The whole screen tested about 21,000 reagents; this is an unselected part. Over the whole deposit, 497 (2.4%) were called active. 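Higher z means weaker E2 silencing; only reporter increases were scored, and knock-downs that hurt cell survival may mask genuine repressor factors.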 Entries without a mark were called inactive.

Silencing of TAGLN2 (GeneID 8407) came out at: mean z-score 1.17; z-score, replicate A = 1.28; z-score, replicate B = 1.16; z-score, replicate C = 1.07.
SYNRG (GeneID 11276) showed mean z-score 0.12; z-score, replicate A = 0.25; z-score, replicate B = 0.04; z-score, replicate C = 0.07.
Silencing of SOS1 (GeneID 6654) came out at: mean z-score -0.06; z-score, replicate A = 0.37; z-score, replicate B = -0.21; z-score, replicate C = -0.33.
After knock-down of THAP7 (GeneID 80764), the screen gave mean z-score -0.83; z-score, replicate A = -1.13; z-score, replicate B = -0.71; z-score, replicate C = -0.64.
Silencing of LRFN5 (GeneID 145581) came out at: mean z-score 1.64; z-score, replicate A = 0.8; z-score, replicate B = 1.48; z-score, replicate C = 2.63.
LOC343052 (GeneID 343052) showed mean z-score 0.01; z-score, replicate A = 0.42; z-score, replicate B = 0; z-score, replicate C = -0.38.
ZNF354C (GeneID 30832) scored mean z-score 1.3; z-score, replicate A = 1.35; z-score, replicate B = 1.33; z-score, replicate C = 1.22.
After knock-down of GOLGA6L9 (GeneID 440295), the record shows mean z-score 1.12; z-score, replicate A = 1.03; z-score, replicate B = 1.03; z-score, replicate C = 1.31.
For KLHL21 (GeneID 9903) the deposit lists mean z-score -0.76; z-score, replicate A = -0.63; z-score, replicate B = -1; z-score, replicate C = -0.64.
After knock-down of SMPD5 (GeneID 392275) the results were mean z-score 0.06; z-score, replicate A = 0.02; z-score, replicate B = 0; z-score, replicate C = 0.16.
For PCSK4 (GeneID 54760), the entry reads mean z-score -0.34; z-score, replicate A = -0.6; z-score, replicate B = -0.45; z-score, replicate C = 0.04.
Knock-down of ABHD17AP5 (GeneID 91219) resulted in: mean z-score -0.63; z-score, replicate A = -0.69; z-score, replicate B = -0.71; z-score, replicate C = -0.5.
For SUPT5H (GeneID 6829), the entry reads mean z-score -2.12; z-score, replicate A = -2.01; z-score, replicate B = -2.07; z-score, replicate C = -2.29.
CNOT6 (GeneID 57472) scored mean z-score -0.04; z-score, replicate A = 0.25; z-score, replicate B = -0.1; z-score, replicate C = -0.27.

Records above whose target name begins with L or l:
LRFN5 (GeneID 145581) | mean z-score: 1.64; z-score, replicate A: 0.8; z-score, replicate B: 1.48; z-score, replicate C: 2.63
LOC343052 (GeneID 343052) | mean z-score: 0.01; z-score, replicate A: 0.42; z-score, replicate B: 0; z-score, replicate C: -0.38

The listing continues:
FGFR1OP2 (GeneID 26127) showed mean z-score -2.47; z-score, replicate A = -2.64; z-score, replicate B = -2.38; z-score, replicate C = -2.4.
For KRT73 (GeneID 319101), the entry reads mean z-score 2.3 (active); z-score, replicate A = 2.49; z-score, replicate B = 2.34; z-score, replicate C = 2.06.
C1orf185 (GeneID 284546) gave mean z-score -0.35; z-score, replicate A = -0.47; z-score, replicate B = -0.29; z-score, replicate C = -0.28.
Silencing of KLHL12 (GeneID 59349) came out at: mean z-score -0.19; z-score, replicate A = -0.67; z-score, replicate B = -0.29; z-score, replicate C = 0.37.
Against PLAGL1 (GeneID 5325), the entry reads mean z-score 0.75; z-score, replicate A = 1.09; z-score, replicate B = 0.74; z-score, replicate C = 0.41.
After knock-down of CAPN7 (GeneID 23473), the screen gave mean z-score 0.15; z-score, replicate A = -0.48; z-score, replicate B = 0.27; z-score, replicate C = 0.67.
CENPL (GeneID 91687) gave mean z-score 0.66; z-score, replicate A = 0.88; z-score, replicate B = 0.67; z-score, replicate C = 0.43.
